Consider 101 compounds from PubChem BioAssay AID651602 (The Scripps Research Institute Molecular Screening Center, 2012).

Only a part is listed here, and it is no random draw. Activity calls are given as the source filed them. Rule as the data show it: active = inhibition above about 11%; inactive = the rest.

The experiment in a line: growth loss of phage-infected E. coli, primary screen, RecBCD inhibitor project, absorbance, with phage, HTS (AID 651602). The note with it: at 11.9 µM, stronger effect = higher value.
In general, inhibition refers to the drop in the measured response relative to a control, in per cent. For the compound `CN(C(=O)Cc1ccccc1)C1CC[C@@]2(CCCO2)C[C@@H]1N1CCCC1` (stereo partly specified), the inhibition is inactive: 0.53%.
For `CCN(N=Nc1nonc1N)c1nonc1N` the value was inactive: 2.68%; for `Nc1cccc2ccc([As](=O)(O)O)cc12`, inactive: -0.16%; for `O=C(O)c1ccccc1[As](=O)(O)O`, active: 24%.
For `CC(=O)Nc1ccc([As](=O)(O)O)cc1` the value was inactive: 0.48%; for `CCCC1OP(N)(=O)OCC1CC` (stereo unspecified), inactive: 3.33%.
The result for `CN(C)P(=O)(N(C)C)n1c(Nc2ccccc2)nnc1-c1ccccc1` reads inactive: 1.91%; that for `O=P(Nc1nc2ccc(Cl)cc2s1)(c1ccccc1)c1ccccc1`, inactive: -0.08%; that for `CCOP(=O)(Nc1ccccc1)OCC`, inactive: 2.52%.
For the compound `Cc1cc(SC(NC(=O)c2ccc(F)cc2)C(Cl)(Cl)Cl)ncn1` (stereo unspecified), the inhibition was inactive: -0.45%.
For `CN(C(=O)Cc1ccc(Cl)c(Cl)c1)[C@H]1CCCC[C@@H]1N1CCCC1` the value was inactive: 3.65%.
The result for `Cc1ccc(NP(=O)(Oc2ccccc2F)Oc2ccccc2F)nc1` reads inactive: 4.68%; that for `CCn1c(=O)n(C2CCN(CC3CCCCCCC3)C[C@H]2CO)c2ccccc21` (stereo partly specified), inactive: 2.67%; that for `CC(C)CC(=O)NC(Sc1ccc(Cl)cc1)C(Cl)(Cl)Cl` (stereo unspecified), inactive: -0.62%.
The result for `Nc1cc(N)c2nonc2c1[N+](=O)[O-]` reads inactive: 2.85%; that for `Oc1ccccc1CNc1ccccn1`, inactive: 1.53%; that for `O=C(NC(Sc1ccncn1)C(Cl)(Cl)Cl)c1ccccc1` (stereo unspecified), inactive: 4.06%.
In the case of `NC(=O)c1cc([N+](=O)[O-])cc([N+](=O)[O-])c1N`, the inhibition is inactive: 4.24%.
The result for `CN(C(=O)Cc1ccc(Cl)c(Cl)c1)[C@H]1CCCC[C@H]1N1CCCC1` reads inactive: 2.39%; that for `Cc1ccc(N/C(=N/P(=O)(N2CCOCC2)N2CCOCC2)N2CCOCC2)cc1`, inactive: 4.06%; that for `COc1ccccc1OP(=O)(Nc1ccc(C)cn1)Oc1ccccc1OC`, inactive: 2.82%.
For `Cc1ccc(OP(=O)(Nc2nccs2)Oc2ccc(C)cc2)cc1` the value was inactive: -3.91%; for `Clc1ccc(Cl)c(NC2=NCC(CBr)S2)c1` (stereo unspecified), inactive: 4.8%; for `CN1CCCC(OC(=O)C(c2ccccc2)c2ccccc2)C1` (stereo unspecified), inactive: 0.84%.
The result for `Nc1ccc([As](=O)(O)c2ccc(N)cc2)cc1` reads inactive: 0.31%.
With `C[N+]1=C2C=CC=CC=C2SC12C([N+](=O)[O-])=CC([N+](=O)[O-])=C[C-]2[N+](=O)[O-]` (stereo unspecified), the inhibition is inactive: 4.22%.
For `CCN(/C(=N/P(=O)(N1CCOCC1)N1CCOCC1)N1CCOCC1)c1ccc(OC)cc1` the value was inactive: 3.09%; for `CC(C)=N/N=C(\N)N[N+](=O)[O-]`, inactive: 0%; for `CC(C)c1nc(Nc2ccccc2)n(P(=O)(N(C)C)N(C)C)n1`, inactive: 2.4%.
For `CN(C)C(=O)OCCc1n(C)cc[n+]1C` the value was inactive: 3.7%.
The result for `c1cc(-c2nn[nH]n2)ccc1-c1nn[nH]n1` reads inactive: 3.03%; that for `CC1CCN(C(=O)Oc2c(Cl)cc(Cl)c3cccnc23)CC1`, inactive: 3.43%.
Take `COc1ccc(C2=NCC(CBr)S2)cc1` (stereo unspecified): the inhibition is inactive: 2.08%.
Regarding `CC(=O)N1C2C3N(C(C)=O)C1C1N(C(C)=O)C(C(N1C(C)=O)N3C(C)=O)N2C(C)=O`, the inhibition was inactive: 0.37%.
For `O=[N+]([O-])c1cccc2n[nH]nc12` the value was active: 19.8%.
Regarding `Cc1ccc(NP(=O)(Oc2ccccc2)Oc2ccccc2)nc1`, the inhibition is inactive: 1.37%.
For `O=[N+]([O-])c1cc([N+](=O)[O-])c(CCNc2ccccc2)c([N+](=O)[O-])c1` the value was inactive: 1.22%.
For `CCc1nc2c(n1)c1c(non1O)c1c2no[n+]1[O-]` the value was inactive: 4.53%.
For `CC(C)(C)C(=O)NC(Sc1ccncn1)C(Cl)(Cl)Cl` (stereo unspecified) the value was inactive: 0.92%.
On to `O=[N+]([O-])c1ncn(CCn2ncnc2[N+](=O)[O-])n1`, for which the inhibition is inactive: 2.13%.
As to `O=[N+]([O-])c1cccc(NC2=NCC(CBr)S2)c1` (stereo unspecified), the inhibition is inactive: -2.52%.
With `COC(=O)C1(C)COP(=O)(Nc2ccccc2)OC1` (stereo unspecified), the inhibition was inactive: 1.4%.
For `O=C(O)CNc1ccc([As](=O)(O)O)cc1`, the inhibition was inactive: 1.35%.
For `O=P1(N(CCCl)CCCl)OCCCS1` (stereo unspecified) the value was inactive: 3.01%; for `O=C(Nc1cc([As](=O)(O)O)ccc1O)c1ccccc1`, inactive: 1.83%; for `CC(=O)NC(SC(=S)N(C)C)C(Cl)(Cl)Cl` (stereo unspecified), inactive: 4.54%.
`O=[N+]([O-])c1ncn(CCn2cnc([N+](=O)[O-])n2)n1`: the inhibition was inactive: 1.38%.
For `O=[As](O)(c1ccccc1)c1ccc(O)cc1` the value was inactive: 1.85%; for `C/C(N)=N\P(=O)(OCc1ccccc1)OCc1ccccc1`, inactive: 2.53%; for `Nc1ccc([As](=O)(O)c2ccc([N+](=O)[O-])cc2)cc1`, inactive: 5.14%.
For `C(Cc1nn[nH]n1)Cc1nn[nH]n1` the value was inactive: 1.03%.
Regarding `O=C(OC1CN2CCC1CC2)c1cccc(Cl)c1` (stereo unspecified), the inhibition is inactive: 3.28%.
As to `Nc1ccc(CCCCOc2ccccc2)cc1`, the inhibition was inactive: 3.25%.
With `COc1ccc(N)c([N+](=O)[O-])c1[N+](=O)[O-]`, the inhibition is inactive: 4.9%.
The result for `CN(C)C1(CNC(=O)c2ccc(Cl)c(S(N)(=O)=O)c2)CCCCC1` reads inactive: 0.24%; that for `O=P(Nc1ccccn1)(c1ccc(Br)cc1)c1ccc(Br)cc1`, inactive: 4.58%.
Turning to `O=P(Nc1nc2ccccc2s1)(c1ccccc1)c1ccccc1`, the inhibition was inactive: -0.6%.
On to `C[C@H]1OP(=O)(Oc2ccccc2)[C@H](O)[C@H](O)[C@H]1N=[N+]=[N-]` (stereo partly specified), for which the inhibition is inactive: 2.18%.
The result for `O=P(Nc1nccs1)(c1ccccc1)c1ccccc1` reads inactive: 2.12%; that for `CC(C)C(=O)NC(Sc1ccccc1)C(Cl)(Cl)Cl` (stereo unspecified), inactive: 1.82%; that for `c1nnnn1CCn1cnnn1`, inactive: 3.17%.
The result for `N#C/C(=C\c1ccc(N(CCBr)CCBr)cc1)C(N)=O` reads inactive: 3.02%; that for `CC(=O)c1ccc(N2CC2c2ccncc2)cc1` (stereo unspecified), inactive: 2.3%; that for `COC(=O)C1(C)COP(=O)(NCc2ccccc2)OC1` (stereo unspecified), inactive: 3.42%.
As to `Cc1ccccc1CN(C)C(=O)COC(=O)C(O)(c1ccccc1)c1ccccc1`, the inhibition was inactive: 1.31%.
The result for `C[C@@H]1C=CCP(=O)(Oc2ccccc2)O1` (stereo partly specified) reads inactive: 2.39%; that for `C[C@H]1OP(=O)(Oc2ccccc2)C[C@@H]2O[C@@H]21` (stereo partly specified), inactive: -0.4%; that for `CC(=O)Nc1ccc([As](=O)(O)O)c(O)c1`, inactive: -1.99%.
For the compound `CC(=O)Nc1ccc(Oc2c([N+](=O)[O-])cc([N+](=O)[O-])cc2[N+](=O)[O-])cc1`, the inhibition was inactive: 2.89%.
On to `O=P1(Nc2nc3ccc(Cl)cc3s2)COc2ccccc2O1` (stereo unspecified), for which the inhibition was inactive: 1.85%.
Take `CCOc1ccc(C2=NCC(CBr)S2)cc1` (stereo unspecified): the inhibition was inactive: 5.16%.
For `CCc1cc(O)c([N+](=O)[O-])c(C)c1[N+](=O)[O-]` the value was inactive: 2.09%.
The result for `CC(C)(C)C(=O)NC(Sc1ccccc1)C(Cl)(Cl)Cl` (stereo unspecified) reads inactive: 2.03%; that for `COC(=O)c1cc2c(s1)N=C(c1ccccc1)N(C)P2(=O)N1CCOCC1` (stereo unspecified), inactive: 2.01%; that for `CC(=O)NC(SC(=S)N(CC(C)C)CC(C)C)C(Cl)(Cl)Cl` (stereo unspecified), inactive: 1.4%.
The result for `Cc1ccc(OP(=O)(Nc2ccccn2)Oc2ccc(C)cc2)cc1` reads inactive: 1.39%.
For `O=C(OC1CN2CCC1CC2)c1ccccc1` (stereo unspecified), the inhibition is inactive: 1.67%.
The result for `CCC(=O)N1C2C3N(C(=O)CC)C1C1N(C(=O)CC)C(C(N1C(=O)CC)N3C(=O)CC)N2C(=O)CC` reads inactive: 3.74%; that for `Cc1ccccc1OP(=O)(Nc1ccccn1)Oc1ccccc1C`, inactive: -0.31%; that for `CC(NC(=O)COC(=O)C(O)(c1ccccc1)c1ccccc1)c1ccccc1` (stereo unspecified), inactive: 6.11%.
The result for `CN(C)C(=O)Oc1noc2ccccc12` reads inactive: 2.77%; that for `O=c1c2cc([N+](=O)[O-])ccc2[nH]c2c([N+](=O)[O-])cc([N+](=O)[O-])cc12`, inactive: 6.72%; that for `O=C(NC1CCS(=O)(=O)C1)NP(=S)(Oc1ccccc1)Oc1ccccc1` (stereo unspecified), inactive: 2.48%.
As for `CCNC(=S)/N=C(\N)N[N+](=O)[O-]`, the inhibition is inactive: 3.96%.
As for `c1ccc(-c2nn[nH]n2)c(-c2nn[nH]n2)c1`, the inhibition was inactive: 3.96%.
For `Cc1ccc(NP(=O)(Oc2cccc(C)c2)Oc2cccc(C)c2)nc1` the value was inactive: -1.32%; for `O=P1(N(CCCl)CCCl)OCCC2CCCCN21` (stereo unspecified), inactive: 2.22%.
The result for `NC(=O)Nc1ccc([As](=O)(O)O)cc1` reads inactive: 0.16%.
The result for `CN(C)C(=O)c1cc([N+](=O)[O-])cc2c1-c1c(cc([N+](=O)[O-])cc1[N+](=O)[O-])C2=O` reads inactive: 0.62%.
Take `O=[N+]([O-])c1ccc2c(c1)nnn2O`: the inhibition was inactive: 2.97%.
Turning to `CN(C(=O)Cc1ccc(Cl)c(Cl)c1)[C@H]1CC[C@@]2(CCCO2)C[C@@H]1N1CCCC1`, the inhibition was inactive: 5.32%.
`N#CCCN(C(=O)COC(=O)C(O)(c1ccccc1)c1ccccc1)c1ccc(F)cc1`: the inhibition was inactive: 0.77%.
For `CN(C(=O)Cc1ccccc1)[C@@H]1CC[C@]2(CCCO2)C[C@H]1N1CCCC1` the value was inactive: 1.78%; for `CCOP1(=S)c2c(C)nn(CCC#N)c2N=C(c2ccc(F)cc2)N1C` (stereo unspecified), inactive: -4.7%; for `CCOP1(=S)c2c(C)nn(CCC#N)c2N=C(c2ccccc2F)N1C` (stereo unspecified), inactive: 1.56%.
For `O=P(Nc1nccs1)(Oc1ccccc1)Oc1ccccc1` the value was inactive: 2.17%; for `O=C(O)COc1ccc([As](=O)(O)O)cc1[N+](=O)[O-]`, inactive: 1.83%.
For `Nc1ccccc1[As](=O)(O)c1ccccc1`, the inhibition was inactive: 2.92%.
The result for `CCCOP(=S)(Nc1nc(N)cc(=O)[nH]1)OCCC` reads inactive: 3.65%; that for `Cc1ccc(NCCc2c([N+](=O)[O-])cc([N+](=O)[O-])cc2[N+](=O)[O-])cc1`, inactive: 0.87%; that for `Nc1cccc2c([As](=O)(O)O)cccc12`, inactive: 1.43%.
